PubChem BioAssay AID624099 | ICCB-Longwood | 2012
Shown is one part, drawn at random, of about 21,000 reagents. 497 of them (2.4%) were called active. 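Higher z means weaker E2 silencing; only reporter increases were scored, and knock-downs that hurt cell survival may mask genuine repressor factors.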

Purpose: 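Human genes that papillomavirus E2 requires to repress the HPV18 LCR promoter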 (primary screen)
Cells: human C33A cervical carcinoma cells (HPV-negative) stably expressing BPV1 E2 and an HPV18 LCR luciferase reporter
Knock-down reagent: siRNA pool against human genes, 40 nM
Duration: 72 h
Detection: 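HPV18 LCR reporter light per well, converted to plate-wise z-scores that exclude control wells, and averaged over triplicate plates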
Reading the numbers: mean z-score and z-score: higher = stronger reporter signal, weaker E2 silencing
Active means: 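Hit if mean z-score reaches 2 and two or more of three replicate z-scores also reach 2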

Target gene,mean z-score,"z-score, replicate A","z-score, replicate B","z-score, replicate C",Outcome
IRAG2,0.43,0.57,0.28,0.43,inactive
WIPF1,1.25,0.58,1.32,1.85,inactive
PIM2,0.33,0.16,0.21,0.63,inactive
SLC22A8,1.26,1.15,1.36,1.28,inactive
IL12A,1.65,1.8,1.66,1.5,inactive
ERCC5,0.47,0.41,0.71,0.29,inactive
ARMC9,0.43,0.66,0.99,-0.37,inactive
FAM217B,-1.42,-1.69,-1.85,-0.72,inactive
ADIPOQ,-0.13,-0.05,-0.18,-0.15,inactive
TYK2,0.14,0.17,0.18,0.09,inactive
CCL27,0.68,0.75,0.81,0.49,inactive
RPS7P10,-4.13,-4.37,-4.25,-3.78,inactive
ITGA11,-0.28,-0.06,-0.56,-0.23,inactive
UGDH,0.34,0.41,0.53,0.08,inactive
CRTC2,0.28,0.55,0.14,0.16,inactive
FAM133A,-0.12,-0.29,-0.07,-0.01,inactive
VWA8,-0.39,-0.17,-0.65,-0.35,inactive
GEMIN7,-0.5,-0.27,-0.66,-0.58,inactive
CPT1A,0.3,-0.32,0.52,0.7,inactive
SAMD10,0.53,0.89,0.38,0.31,inactive
JADE1,-0.06,0.1,0.25,-0.52,inactive
NHLH1,1.59,1.37,1.32,2.06,inactive
MRPL44,-0.42,-0.19,-0.39,-0.67,inactive
CCDC40,-0.33,-0.42,-0.15,-0.42,inactive
LRP2BP,-0.8,-1.08,-0.99,-0.33,inactive
LOC391030 (retired record),-0.26,-0.3,-0.34,-0.15,inactive
FLI1,-0.47,-0.45,-0.5,-0.45,inactive
LY96,0.75,0.62,0.81,0.81,inactive
DAB2,1.02,1.14,0.82,1.1,inactive
WDFY3-AS2,0.14,0.38,0.27,-0.23,inactive
C3orf53 (retired record),-1.29,-1.23,-1.07,-1.58,inactive
RPL17,-2.03,-2.1,-2.07,-1.92,inactive
KCNH2,0.71,0.88,0.68,0.58,inactive
PTPRD,-0.38,-0.39,-0.25,-0.49,inactive
PNRC2,-1.02,-1.19,-0.76,-1.1,inactive
VWA5B1,0.04,0.17,-0.25,0.21,inactive
PSTPIP1,0.18,0.06,0.12,0.36,inactive
PGLS,1.96,1.87,2.12,1.89,inactive
LOC389095 (retired record),-1.27,-1.32,-0.97,-1.51,inactive
AACS,1.42,1.38,1.35,1.55,inactive
KBTBD12,0.41,0.64,0.33,0.26,inactive
BOP1,-0.55,-0.4,-0.56,-0.69,inactive
OR6F1,0.24,0.41,0.09,0.22,inactive
FAM170A,0.25,0.47,0.19,0.09,inactive
MSRB1,-0.52,-0.27,-0.52,-0.78,inactive
EXOSC2,-0.86,-0.97,-0.74,-0.87,inactive
KCNJ11,0.22,0.17,0.31,0.18,inactive
AMN,-0.26,0.04,-0.35,-0.48,inactive
FTH1P19,0.29,0.51,0.16,0.19,inactive
NDUFV1-DT,-0.55,-0.43,-0.45,-0.78,inactive
SELE,0.14,0.19,0.08,0.14,inactive
PCARE,-0.01,-0.1,0.08,0,inactive
SERHL2,1.02,0.91,0.91,1.25,inactive
ZNF346,0,0.09,-0.22,0.14,inactive
IFFO1,0.29,0.55,0,0.33,inactive
MRPL33,0.31,0.23,0.38,0.32,inactive
MFSD6,0.33,-0.08,0.55,0.51,inactive
RABIF,0.02,0.2,-0.05,-0.1,inactive
MOG,-0.39,-0.5,-0.37,-0.31,inactive
PTGER4,1.92,1.81,2.01,1.93,inactive
GZMM,2.1,1.88,2.1,2.33,active
ZSCAN20,0.02,0.1,0.14,-0.18,inactive
MAS1L,-0.62,-0.5,-0.81,-0.54,inactive
RHOXF2,-0.09,-0.17,0.26,-0.36,inactive
SSX2,-0.66,-0.53,-0.64,-0.81,inactive
LOC283804,0.09,0.32,-0.65,0.6,inactive
SNAPC2,-0.19,-0.24,-0.15,-0.18,inactive
THAP1,-1.12,-1.25,-1.09,-1.01,inactive
LINC01020,0.15,-0.15,0.46,0.14,inactive
ZNF106,-0.64,-0.56,-0.71,-0.66,inactive
HLA-B,0.48,0.41,0.49,0.55,inactive
LOC389703 (retired record),-0.48,-0.46,-0.33,-0.64,inactive
LRRC27,-0.08,-0.21,0.04,-0.08,inactive
